Laboratory results taken from patent US20240389602A1, “LIPOSOME FORMULATIONS FOR PESTICIDE DELIVERY AND METHODS FOR PRODUCING AND USING THE SAME” (published 2024).

Columns and labels:
[1] = system: Helicoverpa zea (Corn earworm or CEW); assay: Corn earworm (CEW) foliar spray bioassay, first instar: Hybrid+2; details: no surfactant
fourth instar CEW = assay: CEW injection assay: Hybrid+2
adult houseflies = assay: Housefly injection assay: Hybrid+2; details: injection at dorsal thorax, assessed after 24-hours
second instar CEW = assay: Foliar spray bioassay: second instar CEW
[2] = system: Popillia japonica (Japanese beetle); assay: Japanese beetle foliar spray bioassay: Hybrid+2; details: adult Japanese beetle, day 4, 8 mg/mL Hybrid+2 spray solution, no surfactant
[3] = day 4, 2 mg/mL Hybrid+2 spray solution
[4] = day 4, 6 mg/mL Hybrid+2 spray solution
[5] = day 4, 18 mg/mL Hybrid+2 spray solution

**Q.** Which leaf defoliation [1, 3] does the source give for U+2-ACTX-Hv1a here?
**A.** 29.8%

**Q.** What about the proportion mortality [1, 3] of the same substance?
**A.** 0.06

**Q.** What about the leaf defoliation [1, 4] of the same substance?
**A.** 31.6%

**Q.** And the proportion mortality [1, 4]?
**A.** 0.10

**Q.** What about the leaf defoliation [1, 5] of the same substance?
**A.** 22.8%

**Q.** What about the proportion mortality [1, 5] of the same substance?
**A.** 0.25

**Q.** And the “dead CEW after injection” value (fourth instar CEW; injection 1146-18344 pmol/g, after 24-hours)?
**A.** no dead CEW

**Q.** What about the KD50 (fourth instar CEW; injection, assessed after 24-hours) of the same substance?
**A.** 6506 pmol/g

**Q.** And the LD50 (adult houseflies)?
**A.** 137 pmol/g

**Q.** And the mortality (second instar CEW; day 4, 1 ppt Hybrid+2, no surfactant)?
**A.** zero

**Q.** And the “percent of leaf eaten” value (second instar CEW; day 4, 1 ppt of Hybrid+2, no surfactant)?
**A.** 67%

**Q.** And the mortality (second instar CEW; day 4, 3 ppt Hybrid+2, no surfactant)?
**A.** zero

**Q.** What about the mortality (second instar CEW; day 4, 9 ppt Hybrid+2, no surfactant) of the same substance?
**A.** zero

**Q.** What about the mortality [2] of the same substance?
**A.** 16.7%
